Results taken from PMC4829596 (Frontiers in Microbiology, 2016).

Test system: D. microsporus
Assay: Production of the isolated compounds in fungal culture, determined by MS with standards
Parameters: species or system Doratomyces microsporus
[1] = supernatant of VPA treated (+VPA, 50 μM) D. microsporus
[2] = supernatant of VPA + Trp treated D. microsporus
[3] = supernatant of tryptophan treated (+Trp) D. microsporus
[4] = supernatant of untreated D. microsporus

Question: `CC(C)(O)CC(N)=O` [3-hydroxy-3-methylbutanamide] was tested. Which Amount [1] did it give?
Answer: 0.004 mg/L

Question: What does the source list for `O=Cc1ccc(O)cc1` [4FP, p-hydroxybenzaldehyde]?
Answer: x-fold of untreated extract (+Trp): 1; x-fold of untreated extract (+VPA): 1.25; x-fold of untreated extract (VPA + Trp): 1; Amount [2]: 0.04 mg/L; Amount [1]: 0.05 mg/L; Amount [3]: 0.04 mg/L; Amount [4]: 0.04 mg/L

Question: For `CC(=O)NCCCCC(=O)O` [5-acetamido pentanoic acid, 5-acetamidopentanoic acid], which Amount [1] is on record?
Answer: 0.02 mg/L

Question: What does the source list for `O=C(O)Cc1c[nH]c2ccccc12` [IAA, indole-3-acetic acid]?
Answer: x-fold of untreated extract (+VPA): 8; x-fold of untreated extract (VPA + Trp): 57; Amount [2]: 0.57 mg/L; Amount [1]: 0.08 mg/L; Amount [3]: 0.43 mg/L; Amount [4]: 0.01 mg/L

Question: What does the source list for `O=C(O)c1c[nH]c2ccccc12` [ICA, indole-3-carboxylic acid]?
Answer: x-fold of untreated extract (+Trp): 17; x-fold of untreated extract (+VPA): 5; x-fold of untreated extract (VPA + Trp): 17; Amount [2]: 0.17 mg/L; Amount [1]: 0.05 mg/L; Amount [3]: 0.17 mg/L; Amount [4]: 0.01 mg/L

Question: `CC(=O)NCCCCCO` [N-(5 hydroxy pentyl)acetamide, N-(5-hydroxypentyl)acetamide] was tested. Which Amount [1] did it give?
Answer: 0.01 mg/L

Question: How did the Amount [1] turn out when `O=C(O)C(O)Cc1ccccc1` (centres unmarked) [PLA, phenyllactic acid] was run?
Answer: 0.07 mg/L

Question: And the Amount [4]?
Answer: not detectable

Question: With `CSCCC1NC(=O)C2CCCN2C1=O` [cPM, cyclo-(L-proline-L-methionine)] as the compound, how does the “x-fold of untreated extract” value (+Trp) read?
Answer: 1

Question: What about the “x-fold of untreated extract” value (+VPA) of the same compound?
Answer: 3.5

Question: What about the “x-fold of untreated extract” value (VPA + Trp) of the same compound?
Answer: 2

Question: And the Amount [2]?
Answer: 0.04 mg/L

Question: And the Amount [1]?
Answer: 0.07 mg/L

Question: What about the Amount [3] of the same compound?
Answer: 0.02 mg/L

Question: What about the Amount [4] of the same compound?
Answer: 0.02 mg/L
